The results in this text go back to PubChem BioAssay AID540336 (Broad Institute, 2011).

Amino acid sequences for entries named in this document (tags omitted).
UniProt Q5AAJ8, whole entry: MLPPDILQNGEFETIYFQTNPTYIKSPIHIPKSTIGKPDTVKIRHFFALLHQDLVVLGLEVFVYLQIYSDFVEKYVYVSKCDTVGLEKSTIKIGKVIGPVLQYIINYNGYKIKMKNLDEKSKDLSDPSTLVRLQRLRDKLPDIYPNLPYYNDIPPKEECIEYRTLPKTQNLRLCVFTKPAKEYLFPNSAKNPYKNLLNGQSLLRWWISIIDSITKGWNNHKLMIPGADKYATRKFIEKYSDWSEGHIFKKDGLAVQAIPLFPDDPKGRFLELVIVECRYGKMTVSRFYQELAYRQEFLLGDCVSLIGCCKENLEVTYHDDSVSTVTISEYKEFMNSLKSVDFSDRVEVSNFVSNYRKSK

Only a part is listed here, and it is no random draw. Some structures show a salt or complex split into parts, the way the source records it. The source made the active and inactive calls.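 The calls were made as follows: active = inhibition of at least 50% in every replicate; inconclusive = best replicate reaches 50% inhibition but some replicates fall short; inactive = the rest.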

Broadly, the inhibition is the change of the read-out against control, counted positive when it falls.

The test deals with Histone acetyltransferase RTT109 (Candida albicans (strain SC5314 / ATCC MYA-2876)) (UniProt Q5AAJ8). Briefly: inhibitors of C. albicans Rtt109/Vps75 HAT, primary screen, biochemical, ThioGlo CoA-SH fluorescence, plate reader (AID 540336). The following applies: purified Rtt109/Vps75, ThioGlo CoA-SH fluorescence, 4 h; at 34.9 µM; stronger effect = higher value.
With `COc1ccccc1OP(C)(=O)Nc1ccccc1` (stereo unspecified), the inhibition was inactive: 11.6%.
The figure for `CP(=O)(Nc1ccccc1Br)Oc1ccccc1` (stereo unspecified) is inactive: -8.36%; for `CP(=S)(Nn1cnnc1)Oc1ccccc1` (stereo unspecified) it is inactive: -4.19%; for `CCc1ccc(OP(C)(=O)N2CCN(c3ccc([N+](=O)[O-])cc3)CC2)cc1` (stereo unspecified) it is inactive: -2.69%.
The figure for `CP(=O)(NC(=O)Nc1ccccc1)Oc1ccccc1` (stereo unspecified) is inactive: -9.36%; for `Cc1cc(C)cc(OP(C)(=O)Nc2ccc(SC(F)(F)F)cc2)c1` (stereo unspecified) it is inactive: 18.8%.
The figure for `Cc1cccc(C)c1OP(C)(=O)Nc1ccc(SC(F)(F)F)cc1` (stereo unspecified) is inactive: -9.18%.
As to `CP(=O)(Oc1ccccc1)OC(c1ccccc1)C(F)(F)F` (stereo unspecified), the inhibition was inactive: -6.93%.
To `CP(=O)(Nc1ccccn1)Oc1ccc(Cl)cc1` (stereo unspecified) belongs inactive: -4.07%; to `CCOP(C)(=S)SCC(=O)NC(C)C(=O)O` (stereo unspecified), inactive: -5.2%.
The figure for `CCOC(=O)c1ccc(NP(C)(=O)Oc2ccc(OC)cc2)cc1` (stereo unspecified) is inactive: 4.77%; for `CCN(CC)CCCOC(=O)C(O)(c1ccccc1)c1ccccc1` it is inactive: -5.5%; for `CC(C)(C)c1ccc(OP(C)(=O)Nc2ccc(SC(F)(F)F)cc2)cc1` (stereo unspecified) it is inactive: -2.45%.
For `Cc1cccc(C)c1OP(C)(N)=O` (stereo unspecified), the inhibition was inactive: 2.35%.
To `O=[N+]([O-])c1ccc2c(c1)C=Nc1ccccc1O2` belongs inactive: -1.19%; to `O=[N+]([O-])c1cc([N+](=O)[O-])c(Nc2cccnc2)c([N+](=O)[O-])c1`, inactive: -0.689%; to `COc1ccccc1OP(C)(=O)Nc1cc(Cl)ccc1C` (stereo unspecified), inactive: 2.04%.
As for `COc1ccc(OP(C)(=O)Nc2cccc(F)c2)cc1` (stereo unspecified), the inhibition was inactive: -0.739%.
To `Cc1cc(C)cc(OP(C)(N)=O)c1` (stereo unspecified) belongs inactive: -1.82%; to `CCOC(=O)c1ccc(NP(C)(=O)Oc2ccccc2)cc1` (stereo unspecified), inactive: -1.59%.
Consider `COc1ccccc1OP(C)(=O)Nc1ccc(C)cc1` (stereo unspecified), for which the inhibition is inactive: 4.29%.
The figure for `Cc1ccc(NP(C)(=O)Oc2ccccc2)c(C)c1` (stereo unspecified) is inactive: -2.09%; for `O=C(O)c1cccc(Nc2c([N+](=O)[O-])cc([N+](=O)[O-])cc2[N+](=O)[O-])c1` it is inactive: 16.3%.
To `CC1=NCCc2c1[nH]c1ccccc21.O=[N+]([O-])c1cc([N+](=O)[O-])c(O)c([N+](=O)[O-])c1` belongs inactive: -5.29%.
To `CCOC(=O)c1ccc(NP(C)(=O)Oc2cc(C)cc(C)c2)cc1` (stereo unspecified) belongs inactive: -5.9%; to `COc1ccccc1OP(C)(=O)Nc1cccc(Br)c1` (stereo unspecified), inactive: -2.03%.
`CP(=O)(Nc1cccc(Br)c1)Oc1ccccc1` (stereo unspecified): the inhibition is inactive: -6.9%.
For the compound `Cc1cc(C)cc(OP(C)(=O)Nc2ccccn2)c1` (stereo unspecified), the inhibition is inactive: -0.036%.
`Cc1ccc(C)c(NP(C)(=O)Oc2ccccc2)c1` (stereo unspecified): the inhibition is inactive: 18.5%.
For `O=[N+]([O-])c1cc([N+](=O)[O-])c(-n2nnc3ccccc32)c([N+](=O)[O-])c1`, the inhibition was inactive: 4.49%.
The figure for `Cc1nc2ccc3ccccc3c2s1.O=[N+]([O-])c1cc([N+](=O)[O-])c(O)c([N+](=O)[O-])c1` is inactive: 15.3%.
In the case of `O=[N+]([O-])c1cc([N+](=O)[O-])c(-c2cnn(-c3ccccc3)c2)c([N+](=O)[O-])c1`, the inhibition is inactive: -2.11%.
To `O=[N+]([O-])c1cc([N+](=O)[O-])c(Nc2nnnn2CCO)c([N+](=O)[O-])c1` belongs inactive: -2.65%; to `CC1=C2N=C(C=C3N=C(C(C)=C4[N-][C@@](C)([C@@H]5N=C1[C@](C)(CCC(=O)NC[C@@H](C)OP(=O)([O-])O[C@H]1[C@@H](O)[C@@H](n6cnc7cc(C)c(C)cc76)O[C@@H]1CO)[C@H]5CC(N)=O)[C@@](C)(CC(N)=O)[C@@H]4CCC(N)=O)[C@@](C)(CC(N)=O)[C@@H]3CCC(N)=O)C(C)(C)[C@@H]2CCC(N)=O.[C-]#N.[Co+3]`, inactive: 5.39%.
To `CCOC(=O)C(CC)C1=NC(C)(C)Cc2ccccc21.O=[N+]([O-])c1cc([N+](=O)[O-])c(O)c([N+](=O)[O-])c1` (stereo unspecified) belongs inactive: -14.7%; to `CP(=O)(Nc1ccc(SC(F)(F)F)cc1)Oc1ccccc1` (stereo unspecified), inactive: 11%.
The figure for `CCCOc1ccc(NP(C)(=O)Oc2ccc(Cl)cc2)cc1` (stereo unspecified) is inactive: 8.25%; for `COc1ccccc1OP(C)(=O)Nc1c(C)cccc1C` (stereo unspecified) it is inactive: 4.36%.
As for `CN1CCCCC1COC(=O)C1(O)c2ccccc2CCc2ccccc21` (stereo unspecified), the inhibition was inactive: 13.6%.
The figure for `COc1ccc(NP(C)(=O)Oc2ccccc2OC)cc1` (stereo unspecified) is inactive: 2.68%; for `CN(C)CCOC(=O)C(O)(c1ccccc1)C1CCCCC1` (stereo unspecified) it is inactive: -3.56%.
The figure for `COc1ccc(OP(C)(=O)Nc2cccc(Br)c2)cc1` (stereo unspecified) is inactive: 2.31%; for `Cc1c(C(c2ccc3c(c2)OCO3)c2c(C)n(C)n(-c3ccccc3)c2=O)c(=O)n(-c2ccccc2)n1C.O=[N+]([O-])c1cc([N+](=O)[O-])c(O)c([N+](=O)[O-])c1` it is inactive: -3.61%.
The figure for `O=[N+]([O-])c1cc([N+](=O)[O-])c(NCC2CCS(=O)(=O)C2)c([N+](=O)[O-])c1` (stereo unspecified) is inactive: 3.43%; for `Cc1cc(-c2cccc3ccccc23)c(C)cn1.O=[N+]([O-])c1cc([N+](=O)[O-])c(O)c([N+](=O)[O-])c1` it is inactive: 13.6%; for `O=[N+]([O-])c1ccc(OP2(=O)COCCO2)cc1` (stereo unspecified) it is inactive: -1.36%.
Consider `CCOP(C)(=S)SCC(=O)NC(C)(CC)C(=O)O` (stereo unspecified), for which the inhibition is inactive: -12.6%.
To `CP(=O)(Nc1ccc(SC(F)(F)F)cc1)Oc1ccc(F)cc1` (stereo unspecified) belongs inactive: 6.29%; to `Cc1ccccc1NP(C)(=O)Nc1ccccc1C`, inactive: -4.81%; to `CP(=O)(Nc1ccc2c(c1)OCCO2)Oc1ccccc1` (stereo unspecified), inactive: -2.1%.
To `CC(C)c1ccc(OP(C)(=O)Nc2ccc(SC(F)(F)F)cc2)cc1` (stereo unspecified) belongs inactive: 8.11%; to `CP(=O)(Nc1ccccc1F)Oc1ccccc1` (stereo unspecified), inactive: 1.73%; to `COc1ccc2c(c1O)-c1c(O)c(OC)cc3c1[C@H](C2)[N+](C)(C)CC3.O=[N+]([O-])c1cc([N+](=O)[O-])c([O-])c([N+](=O)[O-])c1[O-]`, inactive: 4.42%.
To `O=C(OCCN1CCN(CCOCc2ccccc2)CC1)C(O)(c1ccccc1)c1ccccc1` belongs inactive: 5.97%; to `O=C(OC1CN2CCC1CC2)c1ccc([N+](=O)[O-])cc1` (stereo unspecified), inactive: -9.47%.
As to `COc1ccc(OP(C)(=O)Nc2ccc(SC(F)(F)F)cc2)cc1` (stereo unspecified), the inhibition is inactive: -0.514%.
The figure for `CCOC(=O)c1ccc(NP(C)(=O)Oc2ccc(F)cc2)cc1` (stereo unspecified) is inactive: -6.78%; for `O=[N+]([O-])c1cc([N+](=O)[O-])c(OC2CCCCC2O)c([N+](=O)[O-])c1` (stereo unspecified) it is inactive: 0.421%; for `CCCCCOc1ccc(NP(C)(=O)Oc2ccc(Cl)cc2Cl)cc1` (stereo unspecified) it is inactive: -2.77%.
Turning to `CCN(CC)CCCOC(=O)C(O)(c1ccccc1)C1CCCCC1` (stereo unspecified), the inhibition is inactive: -12.9%.
The figure for `Cc1c([N+](=O)[O-])cc([N+](=O)[O-])c(Br)c1[N+](=O)[O-]` is inactive: 2.44%.
Turning to `COc1ccc(OP(C)(=O)Nc2ccccc2Br)cc1` (stereo unspecified), the inhibition was inactive: 2.81%.
`COc1ccccc1OP(C)(=O)Nc1ccc(C)c(C)c1` (stereo unspecified): the inhibition was inactive: -2.7%.
As for `O=C1C(O)=C([N+](=O)[O-])C(=O)C(O)=C1[N+](=O)[O-]`, the inhibition was inactive: 0.578%.
The figure for `Cc1cc(C)cc(OP(C)(=O)Nc2cccc(C(F)(F)F)c2)c1` (stereo unspecified) is inactive: 2%; for `CP(=O)(OCCOc1ccccc1)OCCOc1ccccc1` it is inactive: -3.08%; for `CP(=O)(Nc1ccc(Cl)cc1Cl)Oc1ccccc1` (stereo unspecified) it is inactive: -3.7%.
As for `CCCCCCCCCCCCCCCC1C[N+](C)(C)CCOP(C)(=O)O1` (stereo unspecified), the inhibition was inactive: 0.535%.
To `CN(C)CCOC(=O)C(O)(c1ccccc1)C1CCCC1` (stereo unspecified) belongs inactive: -4.4%; to `COc1ccc(OP(C)(=O)Nc2ccccn2)cc1` (stereo unspecified), inactive: -1.86%.
The figure for `COc1ccccc1OP(C)(=O)Nc1ccc(Br)cc1` (stereo unspecified) is inactive: -16.7%; for `CCc1ccc(OP(C)(=O)O)cc1` it is inactive: 4.7%; for `COc1ccccc1OP(C)(=O)Nc1ccc(C)cc1C` (stereo unspecified) it is inactive: 1.33%.
To `O=[N+]([O-])c1cc([N+](=O)[O-])c(Nc2ccccn2)c([N+](=O)[O-])c1` belongs inactive: 9.96%; to `Cc1c(NP(C)(=O)Oc2ccc(C(C)C)cc2)c(=O)n(-c2ccccc2)n1C` (stereo unspecified), inactive: -0.065%; to `CP(=O)(Oc1ccccc1)N1CCOC1=O` (stereo unspecified), inactive: -12.9%.
For `CCc1ccc(OP(C)(=O)Nc2cccnc2)cc1` (stereo unspecified), the inhibition is inactive: 2.37%.
The figure for `COc1ccccc1OP(C)(=O)Nc1c(C)n(C)n(-c2ccccc2)c1=O` (stereo unspecified) is inactive: 4.32%.
The figure for `O=C(OCCCN1CCCC1)C(O)(c1ccccc1)C1CCCCC1` (stereo unspecified) is inactive: 6.65%.
The figure for `CCN(CC)CC(O)COC(=O)C(O)(c1ccccc1)C1CCCCC1` (stereo unspecified) is inactive: -0.391%.
On to `COc1ccc(OP(C)(=O)Nc2ccc(Br)cc2)cc1` (stereo unspecified), for which the inhibition was inactive: 0.003%.
The figure for `CN(C)C(=O)c1c([N+](=O)[O-])cc([N+](=O)[O-])cc1[N+](=O)[O-]` is inactive: 4.66%; for `CC(C)(C)c1ccc(OP(C)(=O)O)cc1` it is inactive: 3.66%.
On to `COc1ccccc1OP(C)(=O)Nc1ccccc1Br` (stereo unspecified), for which the inhibition is inactive: 5.41%.
To `CP(=O)(OC12CC3CC(CC(C3)C1)C2)OC12CC3CC(CC(C3)C1)C2` belongs inactive: -37.9%; to `CCOC(=O)c1ccc(NP(C)(=O)Oc2ccc(Cl)cc2)cc1` (stereo unspecified), inactive: -2%.
